The list shows a part of the results, in another mix than the full data. The source made the active and inactive calls. Cut-off read from the data, not from the text of the source: active = inhibition above about 8.5% (passing the limit was not always enough); inconclusive = no clear call, values can overlap the other calls.
system: Mycobacterium tuberculosis FadD28 fatty-acid-AMP ligase; assay: inhibitors of FadD28 bisubstrate probe binding, primary screen, biochemical, fluorescence polarization, single point (AID 588549); conditions: at 12.5 µM, stronger effect = higher value

Row | Compound | inhibition
1 | O=P1(N(CCCl)CCCl)OCCCS1 (stereo unspecified) | inactive: -1.72%
2 | O=C(Nc1cc([As](=O)(O)O)ccc1O)c1ccccc1 | inactive: -2.2%
3 | CC(C)(C)C(=O)NC(Sc1ccncn1)C(Cl)(Cl)Cl (stereo unspecified) | inactive: 0.056%
4 | O=[N+]([O-])c1ncn(CCn2ncnc2[N+](=O)[O-])n1 | inactive: 2.6%
5 | O=[N+]([O-])c1cccc(NC2=NCC(CBr)S2)c1 (stereo unspecified) | inactive: -1.47%
6 | COC(=O)C1(C)COP(=O)(Nc2ccccc2)OC1 (stereo unspecified) | inactive: -4.18%
7 | O=C(O)CNc1ccc([As](=O)(O)O)cc1 | inactive: -3.67%
8 | COc1ccc(C2=NCC(CBr)S2)cc1 (stereo unspecified) | inactive: -2.2%
9 | O=[N+]([O-])c1cccc2n[nH]nc12 | inactive: -2.5%
10 | CC(=O)N1C2C3N(C(C)=O)C1C1N(C(C)=O)C(C(N1C(C)=O)N3C(C)=O)N2C(C)=O | inactive: -2.89%
11 | CCc1nc2c(n1)c1c(non1O)c1c2no[n+]1[O-] | inactive: -1.94%
12 | O=[N+]([O-])c1cc([N+](=O)[O-])c(CCNc2ccccc2)c([N+](=O)[O-])c1 | inactive: -2.62%
13 | Cc1ccc(NP(=O)(Oc2ccccc2)Oc2ccccc2)nc1 | inactive: -0.651%
14 | C[N+]1=C2C=CC=CC=C2SC12C([N+](=O)[O-])=CC([N+](=O)[O-])=C[C-]2[N+](=O)[O-] (stereo unspecified) | inactive: 2.95%
15 | Nc1ccc([As](=O)(O)c2ccc(N)cc2)cc1 | inactive: -1.95%
16 | CN(C)C(=O)OCCc1n(C)cc[n+]1C | inactive: -2.82%
17 | CC(C)=N/N=C(\N)N[N+](=O)[O-] | inactive: -2.64%
18 | CC(C)c1nc(Nc2ccccc2)n(P(=O)(N(C)C)N(C)C)n1 | inactive: -0.815%
19 | c1cc(-c2nn[nH]n2)ccc1-c1nn[nH]n1 | inactive: -1.41%
20 | CC1CCN(C(=O)Oc2c(Cl)cc(Cl)c3cccnc23)CC1 | inactive: -1.77%
21 | NC(=O)c1cc([N+](=O)[O-])cc([N+](=O)[O-])c1N | inactive: -2.05%
22 | Cc1ccc(N/C(=N/P(=O)(N2CCOCC2)N2CCOCC2)N2CCOCC2)cc1 | inactive: -2.09%
23 | CN(C(=O)Cc1ccc(Cl)c(Cl)c1)[C@H]1CCCC[C@H]1N1CCCC1 | inactive: -4.46%
24 | Cc1ccc(OP(=O)(Nc2nccs2)Oc2ccc(C)cc2)cc1 | inactive: -0.576%
25 | COc1ccccc1OP(=O)(Nc1ccc(C)cn1)Oc1ccccc1OC | inactive: 0.398%
26 | Clc1ccc(Cl)c(NC2=NCC(CBr)S2)c1 (stereo unspecified) | inactive: -5.63%

Row | Compound | inhibition
27 | CN1CCCC(OC(=O)C(c2ccccc2)c2ccccc2)C1 (stereo unspecified) | inactive: 1.04%
28 | CC(C)CC(=O)NC(Sc1ccc(Cl)cc1)C(Cl)(Cl)Cl (stereo unspecified) | inactive: -3.04%
29 | Nc1cc(N)c2nonc2c1[N+](=O)[O-] | inactive: -2.07%
30 | O=C(NC(Sc1ccncn1)C(Cl)(Cl)Cl)c1ccccc1 (stereo unspecified) | inactive: -2.19%
31 | Oc1ccccc1CNc1ccccn1 | inactive: -1.07%
32 | O=[N+]([O-])C1C(O)C(O)C([N+](=O)[O-])C(O)C1O (stereo unspecified) | inactive: -0.386%
33 | O=C(O)c1ccccc1[As](=O)(O)O | inactive: -2.28%
34 | CC(=O)Nc1ccc([As](=O)(O)O)cc1 | inactive: 0.304%
35 | CN(C)P(=O)(N(C)C)n1c(Nc2ccccc2)nnc1-c1ccccc1 | inactive: -7.03%
36 | O=P(Nc1nc2ccc(Cl)cc2s1)(c1ccccc1)c1ccccc1 | inactive: -1.65%
37 | Cc1ccc(NP(=O)(Oc2ccccc2F)Oc2ccccc2F)nc1 | inactive: -0.955%
38 | CN(C(=O)Cc1ccc(Cl)c(Cl)c1)[C@H]1CCCC[C@@H]1N1CCCC1 | inactive: -1.75%
39 | CCOP(=O)(Nc1ccccc1)OCC | inactive: 0.432%
40 | Cc1cc(SC(NC(=O)c2ccc(F)cc2)C(Cl)(Cl)Cl)ncn1 (stereo unspecified) | inactive: -1.86%
41 | CCN(N=Nc1nonc1N)c1nonc1N | inactive: -0.865%
42 | Nc1cccc2ccc([As](=O)(O)O)cc12 | active: 15%
43 | CCNC(=S)/N=C(\N)N[N+](=O)[O-] | inactive: -2.83%
44 | O=C(NC1CCS(=O)(=O)C1)NP(=S)(Oc1ccccc1)Oc1ccccc1 (stereo unspecified) | inactive: -3.78%
45 | Cc1ccc(NP(=O)(Oc2cccc(C)c2)Oc2cccc(C)c2)nc1 | inactive: -0.0565%
46 | c1ccc(-c2nn[nH]n2)c(-c2nn[nH]n2)c1 | inactive: -0.0095%
47 | O=P1(N(CCCl)CCCl)OCCC2CCCCN21 (stereo unspecified) | inactive: -0.56%
48 | CC(=O)NC(SC(=S)N(CC(C)C)CC(C)C)C(Cl)(Cl)Cl (stereo unspecified) | inactive: -5.88%
49 | Cc1ccc(OP(=O)(Nc2ccccn2)Oc2ccc(C)cc2)cc1 | inactive: -3.94%
50 | COC(=O)c1cc2c(s1)N=C(c1ccccc1)N(C)P2(=O)N1CCOCC1 (stereo unspecified) | inactive: -2.88%
51 | CCC(=O)N1C2C3N(C(=O)CC)C1C1N(C(=O)CC)C(C(N1C(=O)CC)N3C(=O)CC)N2C(=O)CC | inactive: -0.47%
52 | O=C(OC1CN2CCC1CC2)c1ccccc1 (stereo unspecified) | inactive: -4.57%

Row | Compound | inhibition
53 | CN(C)C(=O)Oc1noc2ccccc12 | inactive: -3.38%
54 | O=c1c2cc([N+](=O)[O-])ccc2[nH]c2c([N+](=O)[O-])cc([N+](=O)[O-])cc12 | inactive: -4.33%
55 | Cc1ccccc1OP(=O)(Nc1ccccn1)Oc1ccccc1C | inactive: -0.863%
56 | CC(NC(=O)COC(=O)C(O)(c1ccccc1)c1ccccc1)c1ccccc1 (stereo unspecified) | inactive: -1.09%
57 | CCOc1ccc(C2=NCC(CBr)S2)cc1 (stereo unspecified) | inactive: 0.327%
58 | O=P1(Nc2nc3ccc(Cl)cc3s2)COc2ccccc2O1 (stereo unspecified) | inactive: 0.232%
59 | CCc1cc(O)c([N+](=O)[O-])c(C)c1[N+](=O)[O-] | inactive: -4.12%
60 | CC(C)(C)C(=O)NC(Sc1ccccc1)C(Cl)(Cl)Cl (stereo unspecified) | inactive: -4.7%
61 | COC(=O)C1(C)COP(=O)(NCc2ccccc2)OC1 (stereo unspecified) | inactive: -3.52%
62 | N#C/C(=C\c1ccc(N(CCBr)CCBr)cc1)C(N)=O | inactive: -2.66%
63 | CC(=O)c1ccc(N2CC2c2ccncc2)cc1 (stereo unspecified) | inactive: -1.1%
64 | C[C@@H]1C=CCP(=O)(Oc2ccccc2)O1 (stereo partly specified) | inactive: 0.577%
65 | C[C@H]1OP(=O)(Oc2ccccc2)C[C@@H]2O[C@@H]21 (stereo partly specified) | inactive: -1.82%
66 | Cc1ccccc1CN(C)C(=O)COC(=O)C(O)(c1ccccc1)c1ccccc1 | inactive: -2.72%
67 | CC(=O)Nc1ccc(Oc2c([N+](=O)[O-])cc([N+](=O)[O-])cc2[N+](=O)[O-])cc1 | inactive: -1.04%
68 | CC(=O)Nc1ccc([As](=O)(O)O)c(O)c1 | inactive: -1.31%
69 | CC(C)C(=O)NC(Sc1ccccc1)C(Cl)(Cl)Cl (stereo unspecified) | inactive: -2.26%
70 | O=P(Nc1nccs1)(c1ccccc1)c1ccccc1 | inactive: -4.64%
71 | c1nnnn1CCn1cnnn1 | inactive: -0.799%
72 | Nc1ccc(CCCCOc2ccccc2)cc1 | inactive: 0.772%
73 | COc1ccc(N)c([N+](=O)[O-])c1[N+](=O)[O-] | inactive: -1.13%
74 | O=P(Nc1ccccn1)(c1ccc(Br)cc1)c1ccc(Br)cc1 | inactive: 0.351%
75 | C[C@H]1OP(=O)(Oc2ccccc2)[C@H](O)[C@H](O)[C@H]1N=[N+]=[N-] (stereo partly specified) | inactive: -3.13%
76 | O=P(Nc1nc2ccccc2s1)(c1ccccc1)c1ccccc1 | inactive: -3.64%
77 | O=[N+]([O-])c1ccc(O)c(/C=N/Nc2ccc([N+](=O)[O-])cc2[N+](=O)[O-])c1 | inactive: 0.563%
78 | CC(=O)NC(SC(=S)N(C)C)C(Cl)(Cl)Cl (stereo unspecified) | inactive: -1.43%

Row | Compound | inhibition
79 | O=[N+]([O-])c1ncn(CCn2cnc([N+](=O)[O-])n2)n1 | inactive: -1.4%
80 | O=[As](O)(c1ccccc1)c1ccc(O)cc1 | inactive: 1.75%
81 | Nc1ccc([As](=O)(O)c2ccc([N+](=O)[O-])cc2)cc1 | inactive: -0.938%
82 | C(Cc1nn[nH]n1)Cc1nn[nH]n1 | inactive: 0.673%
83 | O=C(OC1CN2CCC1CC2)c1cccc(Cl)c1 (stereo unspecified) | inactive: -2.44%
84 | CC1CCC(C(C)C)C(OP(=O)(Nc2ccccn2)c2ccccc2)C1 (stereo unspecified) | inactive: -1.2%
85 | Cc1ccc(C(=O)OC2CN3CCC2CC3)cc1 (stereo unspecified) | inactive: 0.398%
86 | Cc1nn(-c2ccccc2)c2c1P(=O)(N1CCOCC1)N(C)C(c1ccccc1)=N2 (stereo unspecified) | inactive: 0.401%
87 | CCCC1OP(=O)(Nc2ccccc2)OCC1CC (stereo unspecified) | inactive: -1.87%
88 | O=C(/C=C/c1ccccc1)OC1CN2CCC1CC2 (stereo unspecified) | inactive: -3.8%
89 | CN(C)C1(CNC(=O)c2ccc(S(C)(=O)=O)cc2)CCCCC1 | inactive: 0.896%
90 | O=P1(Nc2ncccn2)COc2ccccc2OC1 | inactive: -1.4%
91 | Cc1ccc(S(=O)(=O)N(CCCN)CCCc2c(C)nc(N)[nH]c2=O)cc1 | inactive: -0.321%
92 | O=P1(Nc2ccc(Br)cn2)COc2ccccc2OC1 | inactive: -5.37%
93 | NS(=O)(=O)c1cccc(NC(=O)COC(=O)C(O)(c2ccccc2)c2ccccc2)c1 | inactive: -4.2%
94 | Cc1ccc(OCC(=O)OC2CN3CCC2CC3)cc1 (stereo unspecified) | inactive: -1.69%
95 | O=[As](O)(c1cccs1)c1cccs1 | inactive: -0.698%
96 | Nc1cccc([As](=O)(O)c2ccccc2)c1 | inactive: -2.34%
97 | CN(CCCl)Cc1cc(Cl)c(NC2=NCCN2)c(Cl)c1 | inactive: -3.86%
98 | CCOP(=O)(Nc1ccc(C)cn1)OCC | inactive: 1.43%
99 | CCOP(=O)(NC(=NC(C)c1ccccc1)NC(C)c1ccccc1)OCC (stereo unspecified) | inactive: -0.106%
100 | O=P1(Nc2ccccn2)COc2ccccc2OC1 | inactive: -2.15%
101 | CCC1=CC2Cc3nc4ccc(Cl)cc4c(N)c3C(C1)C2 (stereo unspecified) | inactive: -8.55%

Source: PubChem BioAssay AID588549 (Broad Institute, 2011)
